PubChem BioAssay AID624099 | ICCB-Longwood | 2012

- Aim: 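Human genes that papillomavirus E2 requires to repress the HPV18 LCR promoter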 (primary screen)
- Cells: human C33A cervical carcinoma cells (HPV-negative) stably expressing BPV1 E2 and an HPV18 LCR luciferase reporter
- Reagent: siRNA pool against human genes, 40 nM
- Timing: 72 h
- Measured: 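HPV18 LCR reporter light per well, converted to plate-wise z-scores that exclude control wells, and averaged over triplicate plates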
- Scale: mean z-score and z-score: higher = stronger reporter signal, weaker E2 silencing
- Call rule: 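Hit if mean z-score reaches 2 and two or more of three replicate z-scores also reach 2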
Shown is one part, drawn at random, of about 21,000 deposited reagents. In the full data, 497 (2.4%) got an active call. 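Higher z means weaker E2 silencing; only reporter increases were scored, and knock-downs that hurt cell survival may mask genuine repressor factors.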 Reagents against one gene are numbered here.

no.	Gene	reagent	mean z-score	z-score, replicate A	z-score, replicate B	z-score, replicate C	Outcome
1	EPGN (GeneID 255324)	1	-0.19	-0.15	-0.01	-0.41	inactive
2	METTL21EP (GeneID 121952)	1	-1.61	-1.38	-1.67	-1.78	inactive
3	MCTP1 (GeneID 79772)	1	1.01	0.63	1.74	0.67	inactive
4	LAMC3 (GeneID 10319)	1	0.23	0.52	0.16	0.02	inactive
5	CYP26C1 (GeneID 340665)	1	-0.71	-0.79	-0.64	-0.71	inactive
6	MYOZ2 (GeneID 51778)	1	0.98	1.17	1.2	0.56	inactive
7	ATOSB (GeneID 80256)	1	0.74	0.98	0.42	0.81	inactive
8	AGPAT4-IT1 (GeneID 79992)	1	1.37	1.6	1.56	0.94	inactive
9	AAK1 (GeneID 22848)	1	-0.17	-0.6	0.1	-0.02	inactive
10	AAK1 (GeneID 22848)	2	-0.26	-0.03	-0.23	-0.52	inactive
11	BTN3A2 (GeneID 11118)	1	1.07	0.94	1.23	1.04	inactive
12	MAGEF1 (GeneID 64110)	1	-0.49	-0.52	-0.55	-0.41	inactive
13	PROK2 (GeneID 60675)	1	-0.69	-0.3	-0.38	-1.38	inactive
14	TMEM255B (GeneID 348013)	1	0.97	1.17	0.8	0.94	inactive
15	CKMT2 (GeneID 1160)	1	-0.85	-0.98	-0.88	-0.67	inactive
16	MALRD1 (GeneID 340895)	1	-0.53	-0.2	-0.76	-0.62	inactive
17	LOC400692 (retired record) (GeneID 400692)	1	-0.79	-0.69	-1.04	-0.65	inactive
18	THAP12 (GeneID 5612)	1	0.37	0.47	0.08	0.55	inactive
19	KRTAP19-1 (GeneID 337882)	1	-1.18	-1.06	-1.41	-1.08	inactive
20	TNFRSF12A (GeneID 51330)	1	0.34	0.17	0.43	0.41	inactive
21	OTUD7A (GeneID 161725)	1	-0.14	-0.09	-0.19		inactive
22	SLC13A3 (GeneID 64849)	1	0.48	0.24	0.13	1.05	inactive
23	RNF144B (GeneID 255488)	1	0.36	0.7	0.3	0.07	inactive
24	SHCBP1L (GeneID 81626)	1	-1.35	-1.48	-1.2	-1.39	inactive
25	BRPF3 (GeneID 27154)	1	0.35	0.75	0.4	-0.11	inactive
26	MRPL55 (GeneID 128308)	1	-0.17	0	-0.23	-0.28	inactive
27	SYDE1 (GeneID 85360)	1	0.23	0.34	0.35	-0.01	inactive
28	CYP2C19 (GeneID 1557)	1	-0.32	-0.26	-0.46	-0.25	inactive
29	C10orf55 (GeneID 414236)	1	-0.8	-0.81	-0.89	-0.71	inactive
30	HTR2B (GeneID 3357)	1	0.18	0	0.14	0.4	inactive
31	EBF3 (GeneID 253738)	1	-1.16	-1.02	-1.36	-1.09	inactive
32	MT1E (GeneID 4493)	1	-0.48	-0.31	-0.76	-0.36	inactive
33	ADRA1A (GeneID 148)	1	0.09	-0.58	0.12	0.73	inactive
34	CEP164 (GeneID 22897)	1	-1.55	-1.54	-1.53	-1.57	inactive
35	RAB3B (GeneID 5865)	1	0.4	0.53	0.16	0.53	inactive
36	ARHGEF10L (GeneID 55160)	1	-0.97	-1.14	-1.17	-0.6	inactive
37	CSTA (GeneID 1475)	1	2.21	2.29	2.11	2.23	active
38	LOC387922 (retired record) (GeneID 387922)	1	-0.33	-0.39	-0.51	-0.08	inactive
39	ZNF546 (GeneID 339327)	1	-0.09	-0.04	-0.09	-0.14	inactive
40	RAB28 (GeneID 9364)	1	-0.44	-0.59	-0.36	-0.38	inactive
41	HCST (GeneID 10870)	1	-2.05	-1.82	-2.12	-2.19	inactive
42	COCH (GeneID 1690)	1	-0.15	0.08	-0.14	-0.39	inactive
43	EP300 (GeneID 2033)	1	0.97	1.07	0.9	0.95	inactive
44	KCNC1 (GeneID 3746)	1	-0.81	-0.61	-0.77	-1.04	inactive
45	ERICH2 (GeneID 285141)	1	0.25	0.46	0.34	-0.06	inactive
46	CCL3L3 (GeneID 414062)	1	-0.05	-0.02	0.39	-0.52	inactive
47	TNKS2 (GeneID 80351)	1	0.83	0.66	1.15	0.69	inactive
48	NIPAL3 (GeneID 57185)	1	1.05	0.68	0.93	1.56	inactive
49	FAM151AP1 (GeneID 285303)	1	-0.13	-0.12	-0.29	0.03	inactive
50	MKI67 (GeneID 4288)	1	0.3	0.26	0.27	0.36	inactive
51	CSNK1G2-AS1 (GeneID 255193)	1	-0.67	-0.46	-0.51	-1.05	inactive
52	ATP8A1 (GeneID 10396)	1	1.64	1.45	1.61	1.88	inactive
53	PCED1B (GeneID 91523)	1	0.4	0.28	0.2	0.73	inactive
54	LOC389290 (retired record) (GeneID 389290)	1	0.81	1.21	0.61	0.62	inactive
55	KIAA2013 (GeneID 90231)	1	0.42	0.63	0.53	0.12	inactive
56	DICER1 (GeneID 23405)	1	-1.04	-1	-1.13	-0.98	inactive
57	LOC338694 (GeneID 338694)	1	-1.16	-1.12	-1.3	-1.05	inactive

Entries listed above called active (1):
Gene	reagent	mean z-score	z-score, replicate A	z-score, replicate B	z-score, replicate C	Outcome
CSTA (GeneID 1475)	1	2.21	2.29	2.11	2.23	active
